From paper PMC7956476, “Quinoline Functionalized Schiff Base Silver (I) Complexes: Interactions with Biomolecules and In Vitro Cytotoxicity, Antioxidant and Antimicrobial Activities” (Molecules, 2021)
Where “and” joins values, the source holds several entries; their conditions need not be identical. Equal values may be shown once.

Each molecule was assayed on CT-DNA-EB adduct (assay: Fluorescence competitive displacement of ethidium bromide from CT-DNA). Settings: number of binding sites.
Set-up: species or system calf
Description: The Stern–Volmer plot approach was used based on the fact that the Stern–Volmer plots for Q1–Q15 (Figure 5c), were linear an indication of only one mechanism for the quenching fluorescence, i.e., either dynamic or static. […] (1) Ksv=Kqτo where Ksv, Kq, and τo represent Stern–Volmer quenching constant, bimolecular quenching constant, and an average lifetime of the fluorophore in the absence of the quencher, respectively. τₒ normally takes about 10^−8 s in biomacromolecules.
The double-logarithmic Equation (2) was used in determining the binding constant of complexes Q1–Q15 and CT-DNA. (2) logFo−F/F=logKb+n logQ
A competitive displacement study was carried out using fluorescence spectroscopy between CT-DNA pre-treated with ethidium bromide (EB) and complexes Q1–Q15 to establish the complexes′ actual mode of binding to CT-DNA. […] The competitive luminescence displacement assay was done using a modified method. Pre-treated 15 µM solution of EB with 15 µM of CT-DNA was prepared in a phosphate buffer of pH 7.2 and left to equilibrate for 30 min. Keeping CT-DNA-EB concentrations constant, different concentrations (0–20 µM) of the complexes were added at 8 min incubation interval at room temperature. The fluorescence quenching ability of CT-DNA bound EB by the complexes were recorded in the wavelength range of 530–700 nm with an excitation wavelength at 525 nm at 25 °C. (6) Fo/F=1+KSVQ=1+KqτoQ
A Stern–Volmer (Equation (6)) was used to evaluate the CT-DNA-EB fluorescence quenching of the complexes. Where Fo and F denote the relative fluorescence intensities of CT-DNA in the absence and presence of the quencher, Ksv, Stern–Volmer quenching constant, [Q], quencher concentration, Kq, bimolecular quenching constant and τo, average lifetime of the fluorophore in the absence of the quencher which is typically equal to 10^−8 s in biomacromolecules.

In order of rising CT-DNA-EB-Complex n:
1. Clc1ccc(N=Cc2ccc3ccccc3n2)cc1.Clc1ccc(N=Cc2ccc3ccccc3n2)cc1.[Ag+].[O-][Cl+3]([O-])([O-])[O-] [Complex Q8, [Ag(L3)2]ClO4]  1.09
2. [Ag+].[O-][Cl+3]([O-])([O-])[O-].c1ccc2nc(-c3nc4ccccc4s3)ccc2c1.c1ccc2nc(-c3nc4ccccc4s3)ccc2c1 [Complex Q7, [Ag(L2)2]ClO4]  1.11
3. O=S(=O)([O-])C(F)(F)F.[Ag+] [AgCF3SO3, silver trifluoromethanesulfonate, reference compound]  1.15
4. C(=NCc1cccs1)c1ccc2ccccc2n1.C(=NCc1cccs1)c1ccc2ccccc2n1.O=[N+]([O-])[O-].[Ag+] [Complex Q5, [Ag(L5)2]NO3]  1.15
5. Cc1ccc(N=Cc2ccc3ccccc3n2)cc1.Cc1ccc(N=Cc2ccc3ccccc3n2)cc1.O=[N+]([O-])[O-].[Ag+] [Complex Q4, [Ag(L4)2]NO3]  1.17
6. O=S(=O)([O-])C(F)(F)F.[Ag+].c1ccc2nc(-c3nc4ccccc4s3)ccc2c1.c1ccc2nc(-c3nc4ccccc4s3)ccc2c1 [Complex Q12, [Ag(L2)2]CF3SO3]  1.19
7. Clc1ccc(N=Cc2ccc3ccccc3n2)cc1.Clc1ccc(N=Cc2ccc3ccccc3n2)cc1.O=S(=O)([O-])C(F)(F)F.[Ag+] [Complex Q13, [Ag(L3)2]CF3SO3]  1.27
8. O=[N+]([O-])[O-].[Ag+].c1ccc2nc(-c3nc4ccccc4s3)ccc2c1.c1ccc2nc(-c3nc4ccccc4s3)ccc2c1 [Complex Q2, [Ag(L2)2]NO3]  1.27
9. Cc1ccc(N=Cc2ccc3ccccc3n2)cc1.Cc1ccc(N=Cc2ccc3ccccc3n2)cc1.O=S(=O)([O-])C(F)(F)F.[Ag+] [Complex Q14, [Ag(L4)2]CF3SO3]  1.28
10. Clc1ccc(N=Cc2ccc3ccccc3n2)cc1.Clc1ccc(N=Cc2ccc3ccccc3n2)cc1.O=[N+]([O-])[O-].[Ag+] [Complex Q3, [Ag(L3)2]NO3]  1.29
11. Cc1ccc(N=Cc2ccc3ccccc3n2)cc1.Cc1ccc(N=Cc2ccc3ccccc3n2)cc1.[Ag+].[O-][Cl+3]([O-])([O-])[O-] [Complex Q9, [Ag(L4)2]ClO4]  1.30
12. C(=NCc1cccs1)c1ccc2ccccc2n1.C(=NCc1cccs1)c1ccc2ccccc2n1.O=S(=O)([O-])C(F)(F)F.[Ag+] [Complex Q15, [Ag(L5)2]CF3SO3]  1.30

In the case of `C(=NCc1cccs1)c1ccc2ccccc2n1.C(=NCc1cccs1)c1ccc2ccccc2n1.[Ag+].[O-][Cl+3]([O-])([O-])[O-]` [Complex Q10, [Ag(L5)2]ClO4], the CT-DNA-EB-Complex n was ~1 and 1.31.
